Data as given in patent publication US20170107179A1 (Tetraphase Pharmaceuticals, Inc., priority 2010, published 2017).

Test system: Enterobacteriaceae
Test: Broth microdilution MIC by tetracycline resistance phenotype (Table 10)
Type: cell-based
Set-up: unit not given beside the values

CN(C)[C@@H]1C(O)=C(C(N)=O)C(=O)[C@@]2(O)C(O)=C3C(=O)c4c(O)cccc4[C@@](C)(O)[C@H]3C[C@@H]12 [Tetracycline, tetracycline]
MIC50 (TET NS, n=137): >8
MIC90 (TET NS, n=137): >8
MIC50 (TET S, n=168): 1
MIC90 (TET S, n=168): 4
